Data as given in PubChem BioAssay AID624099 (ICCB-Longwood, 2012).
The whole screen tested about 21,000 reagents; below is an unselected part. In the full data, 497 (2.4%) were called active. 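Higher z means weaker E2 silencing; only reporter increases were scored, and knock-downs that hurt cell survival may mask genuine repressor factors.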 Reagents against one gene are numbered here.

- Purpose: 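Knock-downs relieving repression by E2 of an HPV18 LCR luciferase reporter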 (primary screen)
- Cell system: human C33A cervical carcinoma cells (HPV-negative) stably expressing BPV1 E2 and an HPV18 LCR luciferase reporter
- Reagents: siRNA pool against human genes, 40 nM
- Duration: 72 h
- Read-out: 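HPV18 LCR reporter light per well, converted to plate-wise z-scores that exclude control wells, and averaged over triplicate plates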
- Direction: mean z-score and z-score: higher = stronger reporter signal, weaker E2 silencing
- Active means: 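Hit if mean z-score reaches 2 and two or more of three replicate z-scores also reach 2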

| gene | pool no. | mean z-score | z-score, replicate A | z-score, replicate B | z-score, replicate C | outcome |
| --- | --- | --- | --- | --- | --- | --- |
| ZSWIM8 | 1 | -2.52 | -2.42 | -2.42 | -2.72 | inactive |
| ZSWIM8 | 2 | 2.11 | 2.02 | 1.95 | 2.35 | active |
| TDP1 | 1 | -1.9 | -2.06 | -2.19 | -1.45 | inactive |
| ZNF197 | 1 | -1.08 | -1.17 | -0.9 | -1.17 | inactive |
| MLNR | 1 | 1.01 | 0.92 | 1.23 | 0.87 | inactive |
| MED9 | 1 | 0.33 | 0.62 | 0.47 | -0.1 | inactive |
| MGC16384 (retired record) | 1 | -0.31 | -0.59 | -0.19 | -0.15 | inactive |
| TONSL | 1 | -0.35 | -0.25 | -0.31 | -0.49 | inactive |
| KIF25 | 1 | -0.1 | -0.16 | -0.13 | 0 | inactive |
| VIPR2 | 1 | -0.17 | -0.09 | -0.42 | -0.01 | inactive |
| VTCN1 | 1 | -0.48 | -0.62 | -0.52 | -0.29 | inactive |
| MPZL1 | 1 | 1.32 | 1.47 | 1.16 | 1.34 | inactive |
| CTSZ | 1 | -0.26 | -0.3 | -0.15 | -0.33 | inactive |
| LINC00239 | 1 | 0.47 | 0.69 | 0.79 | -0.07 | inactive |
| YAE1 | 1 | 0.6 | 0.38 | 0.49 | 0.91 | inactive |
| BMP15 | 1 | -0.07 | -0.08 | -0.16 | 0.02 | inactive |
| PRKCH | 1 | -0.2 | -0.33 | -0.06 | -0.22 | inactive |
| LOC401530 (retired record) | 1 | -1.3 | -1.22 | -1.42 | -1.28 | inactive |
| KRTAP17-1 | 1 | -1.2 | -1.2 | -1.21 | -1.18 | inactive |
| GRK6 | 1 | -0.78 | -0.84 | -0.69 | -0.8 | inactive |
| C1QC | 1 | -0.07 | -0.32 | 0.26 | -0.14 | inactive |
| BPNT2 | 1 | -0.58 | -1 | -0.81 | 0.08 | inactive |
| UTP14A | 1 | -0.19 | -0.36 | 0 | -0.21 | inactive |
| NVL | 1 | -0.16 | -0.1 | 0.02 | -0.41 | inactive |
| REPS2 | 1 | -0.54 | -0.69 | -0.64 | -0.28 | inactive |
| PTGS2 | 1 | 0.01 | -0.11 | 0.16 | -0.01 | inactive |
| DDX21 | 1 | 0.2 | -0.32 | 0.66 | 0.26 | inactive |
| KIFC1 | 1 | 1.21 | 1.26 | 1.18 | 1.2 | inactive |
| MAG | 1 | -1.23 | -1.05 | -1.49 | -1.14 | inactive |
| LYZL1 | 1 | -2.04 | -1.91 | -2.17 | -2.02 | inactive |
| ZNF184 | 1 | -0.95 | -0.88 | -0.84 | -1.13 | inactive |
| CSRNP2 | 1 | 1.39 | 1.71 | 1.44 | 1.03 | inactive |
| SRD5A3 | 1 | 0.57 | 0.55 | 0.63 | 0.52 | inactive |
| SEC23IP | 1 | -0.75 | -0.76 | -0.81 | -0.68 | inactive |
| ROPN1 | 1 | -0.58 | -0.71 | -0.63 | -0.39 | inactive |
| NEUROD6 | 1 | -0.8 | -1.3 | -1.08 | -0.01 | inactive |
| PARP2 | 1 | -0.51 | -0.51 | -0.43 | -0.6 | inactive |
| ZC3H14 | 1 | 1.06 | 1.35 | 0.87 | 0.96 | inactive |
| TUSC2 | 1 | 0.36 | -0.11 | 0.84 | 0.36 | inactive |
| PDILT | 1 | -1.61 | -1.78 | -1.71 | -1.36 | inactive |
| FCRL6 | 1 | 0.16 | -0.11 | 0.41 | 0.19 | inactive |
| IMMT | 1 | 0.23 | 0.28 | 0.26 | 0.14 | inactive |
| PCYT2 | 1 | 0.08 | – | 0.05 | 0.1 | inactive |
| LOC283157 (retired record) | 1 | -0.88 | -1.07 | -0.87 | -0.7 | inactive |
| RIC3 | 1 | -0.38 | -0.43 | -0.68 | -0.03 | inactive |
| LINC00518 | 1 | -0.55 | -0.47 | -0.72 | -0.47 | inactive |
| CKM | 1 | -1.39 | -1.31 | -1.51 | -1.35 | inactive |
| PPFIA4 | 1 | 1.23 | 1 | 1.2 | 1.49 | inactive |
| SLC16A2 | 1 | -0.16 | 0.08 | -0.27 | -0.28 | inactive |
| BECN1 | 1 | -0.44 | -0.77 | -0.43 | -0.12 | inactive |
| LINC00525 | 1 | -0.32 | -0.06 | -0.58 | -0.32 | inactive |
| STK16 | 1 | -0.2 | -0.03 | -0.16 | -0.4 | inactive |
| LOC390299 (retired record) | 1 | 1.24 | 1.22 | 1.24 | 1.28 | inactive |
| RELCH | 1 | -0.73 | -0.97 | -0.27 | -0.97 | inactive |
| SRD5A1 | 1 | 0.46 | 0.33 | 0.55 | 0.48 | inactive |
| ZNF737 | 1 | -1.16 | -1.08 | -1.23 | -1.15 | inactive |
| OR2M2 | 1 | 1.07 | 1.21 | 0.83 | 1.17 | inactive |

Ordered by “z-score, replicate B” (low to high): 5 of the entries above.
| gene | pool no. | mean z-score | z-score, replicate A | z-score, replicate B | z-score, replicate C | outcome |
| --- | --- | --- | --- | --- | --- | --- |
| MAG | 1 | -1.23 | -1.05 | -1.49 | -1.14 | inactive |
| REPS2 | 1 | -0.54 | -0.69 | -0.64 | -0.28 | inactive |
| PTGS2 | 1 | 0.01 | -0.11 | 0.16 | -0.01 | inactive |
| DDX21 | 1 | 0.2 | -0.32 | 0.66 | 0.26 | inactive |
| KIFC1 | 1 | 1.21 | 1.26 | 1.18 | 1.2 | inactive |
